Measured values from several laboratories, pooled; numbers as filed in NIAID ChemDB.

Shared fields: tests in culture; organism: HIV-1; cells: TZM-bl; endpoint: EC50

Neighbouring rows are from separate reports. ECn is the concentration giving n% inhibition of infection, replication or growth. An empty or dashed field is not shown.

compound	strain or isolate	mutations	read by	result
Cc1ccc(C)c2c1[nH]c1c(Cl)cccc12	BaL	-	luminescence	30.6 µM
CCOC(=O)C(O)(c1c[nH]c2ccccc12)C(F)(F)F	IIIB	-	-	2.994 µM
Cc1cc([N+](=O)[O-])c(C)c2c1[nH]c1cc(Cl)ccc12	NL4-3	-	luminescence	1.4 µM
C[C@@H]1CCCC[C@H]1Oc1cc(CCc2ccccc2)[nH]c(=O)c1I	A17	-	ELISA	0.543 µM
Cc1cc(C#N)cc(C)c1Oc1nc(Nc2ccc(C#N)cc2)nc(N)c1Br	LAI	E138K	-	0.0028 µM
Cc1cc(N)c(C)c2c1[nH]c1cc(Cl)ccc12	NL4-3	-	luminescence	9.3 µM
Cc1cn([C@H]2C[C@H](N=[N+]=[N-])[C@@H](CO)O2)c(=O)[nH]c1=O	92BR018	-	luciferase	0.016 µM
COC(=O)C(O)(c1c[nH]c2ccc(Cl)cc12)C(F)(F)F	IIIB	-	-	5.607 µM
CC(C)=CCOc1cc(NC(=S)c2ccoc2C)ccc1Cl	NL4-3	(36G)V38A	luminescence	>2000 µM
CCOC(=O)C(O)(c1c(C)[nH]c2ccccc12)C(F)(F)F	IIIB	-	-	16.3 µM
Cc1cc(/C=C/C#N)cc(C)c1Nc1ccnc(Nc2ccc(C#N)cc2)n1	LAI	E138Q	-	0.0013 µM
CCOC(=O)C(O)(c1c[nH]c2cccc([N+](=O)[O-])c12)C(F)(F)F	IIIB	-	-	60.7 µM
Cc1cn([C@H]2C[C@H](N=[N+]=[N-])[C@@H](CO)O2)c(=O)[nH]c1=O	CE1176	-	p24 / ELISA	0.02823 µM
O=C1CCCN1CCCN1CC(=O)N2CC(N(CCOc3ccccc3)S(=O)(=O)c3cccc(F)c3)C[C@H]2C1=O	PLAI-JRFL PID2-28B	-	luciferase	>30 µM
CCOC(=O)C(O)(c1c[nH]c2cccc(O)c12)C(F)(F)F	IIIB	-	-	>96.2 µM

The first 2 rows once more:

{"compound": "Cc1ccc(C)c2c1[nH]c1c(Cl)cccc12", "strain or isolate": "BaL", "read by": "luminescence", "result": "30.6 µM"}
{"compound": "CCOC(=O)C(O)(c1c[nH]c2ccccc12)C(F)(F)F", "strain or isolate": "IIIB", "result": "2.994 µM"}